{"source": "PubChem BioAssay AID1259414, Drosophila RNAi Screening Center, 2018", "test": "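Genome-wide screen for host control of endosymbiont load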 (primary screen)", "cell system": "Drosophila JW18 cells infected with Wolbachia", "reagents": "long dsRNA against Drosophila genes, 0.25 µg dsRNA per well of a 384-well plate", "duration": "5 days", "treatment": "cells persistently infected with Wolbachia before knock-down; no added drug", "measured": "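Imaged fluorescence in situ signal for Wolbachia 23S rRNA per DAPI-counted host cell, given as a robust z-score within each plate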", "scale": "Wolbachia per cell robust z: higher = more Wolbachia per host cell than the plate typical", "active means": "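Hit when robust z is 1.5 or more, or -1.5 or less, in at least two of three replicates; excludes dsRNAs with several or no targets, genes not expressed in JW18 and well A1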", "note": "In all, the deposit lists about 24,000 reagents; this is an unselected part of those with a known target gene and a result. Over the whole deposit, about 1,210 (5%) got an active call. 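Inactive calls also include excluded dsRNAs with several or no targets, genes unexpressed in JW18, and well A1, regardless of score.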 Entries without a mark were called inactive."}
{"target gene": "Jhbp12 (Juvenile hormone binding protein 12)", "dsRNA": "DRSC14621", "Wolbachia per cell robust z, rep 1": 0.0119, "Wolbachia per cell robust z, rep 2": -0.344, "Wolbachia per cell robust z, rep 3": -0.175}
{"target gene": "DIP-theta (Dpr-interacting protein theta)", "dsRNA": "DRSC00885", "Wolbachia per cell robust z, rep 1": 1.37, "Wolbachia per cell robust z, rep 2": 0.249, "Wolbachia per cell robust z, rep 3": 1.02}
{"target gene": "DIP-theta (Dpr-interacting protein theta)", "dsRNA": "DRSC02340", "Wolbachia per cell robust z, rep 1": -0.656, "Wolbachia per cell robust z, rep 2": -1.44, "Wolbachia per cell robust z, rep 3": -1.72}
{"target gene": "Parp1 (Poly-(ADP-ribose) polymerase 1)", "dsRNA": "DRSC07725", "Wolbachia per cell robust z, rep 1": -0.133, "Wolbachia per cell robust z, rep 2": 0.513, "Wolbachia per cell robust z, rep 3": 1.7}
{"target gene": "Parp1 (Poly-(ADP-ribose) polymerase 1)", "dsRNA": "DRSC07778", "Wolbachia per cell robust z, rep 1": -0.417, "Wolbachia per cell robust z, rep 2": -0.172, "Wolbachia per cell robust z, rep 3": -3.47}
{"target gene": "Parp1 (Poly-(ADP-ribose) polymerase 1)", "dsRNA": "DRSC07780", "Wolbachia per cell robust z, rep 1": -0.477, "Wolbachia per cell robust z, rep 2": -1.38, "Wolbachia per cell robust z, rep 3": -0.353}
{"target gene": "SP (Sex Peptide)", "dsRNA": "DRSC09664", "Wolbachia per cell robust z, rep 1": 0.63, "Wolbachia per cell robust z, rep 2": -0.206, "Wolbachia per cell robust z, rep 3": 0.947}
{"target gene": "CG3355", "dsRNA": "DRSC00598", "Wolbachia per cell robust z, rep 1": -0.571, "Wolbachia per cell robust z, rep 2": 0.519, "Wolbachia per cell robust z, rep 3": -0.279}
{"target gene": "Zfrp8 (Zinc finger protein RP-8)", "dsRNA": "DRSC04352", "Wolbachia per cell robust z, rep 1": -0.427, "Wolbachia per cell robust z, rep 2": 0.143, "Wolbachia per cell robust z, rep 3": -0.627}
{"target gene": "Snap24 (Synaptosomal-associated protein 24kDa)", "dsRNA": "DRSC16864", "Wolbachia per cell robust z, rep 1": -0.709, "Wolbachia per cell robust z, rep 2": -0.79, "Wolbachia per cell robust z, rep 3": 0.186}
{"target gene": "CG15382", "dsRNA": "DRSC00397", "Wolbachia per cell robust z, rep 1": -0.392, "Wolbachia per cell robust z, rep 2": -0.252, "Wolbachia per cell robust z, rep 3": 0.446}
{"target gene": "CG15382", "dsRNA": "DRSC24805", "Wolbachia per cell robust z, rep 1": 0.555, "Wolbachia per cell robust z, rep 2": -0.0945, "Wolbachia per cell robust z, rep 3": -18.8}
{"target gene": "CG40486", "dsRNA": "DRSC20619", "Wolbachia per cell robust z, rep 1": -0.547, "Wolbachia per cell robust z, rep 2": 1.52, "Wolbachia per cell robust z, rep 3": -1.84}
{"target gene": "mRF1 (mitochondrial translation release factor 1)", "dsRNA": "DRSC02880", "Wolbachia per cell robust z, rep 1": -0.887, "Wolbachia per cell robust z, rep 2": 0.141, "Wolbachia per cell robust z, rep 3": -1.18}
{"target gene": "mRF1 (mitochondrial translation release factor 1)", "dsRNA": "DRSC29576", "Wolbachia per cell robust z, rep 1": 0.234, "Wolbachia per cell robust z, rep 2": 0.416, "Wolbachia per cell robust z, rep 3": 0.752}
{"target gene": "CG4619", "dsRNA": "DRSC02764", "Wolbachia per cell robust z, rep 1": -0.641, "Wolbachia per cell robust z, rep 2": -4.93, "Wolbachia per cell robust z, rep 3": 0.213}
{"target gene": "CG7786", "dsRNA": "DRSC07045", "Wolbachia per cell robust z, rep 1": -3.78, "Wolbachia per cell robust z, rep 2": -1.93, "Wolbachia per cell robust z, rep 3": -3.15}
{"target gene": "CG7786", "dsRNA": "DRSC26604", "Wolbachia per cell robust z, rep 1": 0.279, "Wolbachia per cell robust z, rep 2": -0.157, "Wolbachia per cell robust z, rep 3": 1.58}
{"target gene": "Snx27 (Sorting nexin 27)", "dsRNA": "DRSC17786", "Wolbachia per cell robust z, rep 1": "0.0356 (active)", "Wolbachia per cell robust z, rep 2": -1.58, "Wolbachia per cell robust z, rep 3": -3.56}
{"target gene": "Snx27 (Sorting nexin 27)", "dsRNA": "DRSC18282", "Wolbachia per cell robust z, rep 1": -1.93, "Wolbachia per cell robust z, rep 2": -0.366, "Wolbachia per cell robust z, rep 3": 0.286}
{"target gene": "Snx27 (Sorting nexin 27)", "dsRNA": "DRSC18284", "Wolbachia per cell robust z, rep 1": -0.224, "Wolbachia per cell robust z, rep 2": 0.339, "Wolbachia per cell robust z, rep 3": -0.565}
{"target gene": "axed (axundead)", "dsRNA": "DRSC08833", "Wolbachia per cell robust z, rep 1": 0.145, "Wolbachia per cell robust z, rep 2": 0.00918, "Wolbachia per cell robust z, rep 3": -0.796}
{"target gene": "axed (axundead)", "dsRNA": "DRSC10982", "Wolbachia per cell robust z, rep 1": 0.496, "Wolbachia per cell robust z, rep 2": -1.31, "Wolbachia per cell robust z, rep 3": -0.286}
{"target gene": "Gug (Grunge)", "dsRNA": "DRSC11179", "Wolbachia per cell robust z, rep 1": -2.47, "Wolbachia per cell robust z, rep 2": -0.206, "Wolbachia per cell robust z, rep 3": 0.0435}
{"target gene": "Gug (Grunge)", "dsRNA": "DRSC40848", "Wolbachia per cell robust z, rep 1": -0.539, "Wolbachia per cell robust z, rep 2": 0.493, "Wolbachia per cell robust z, rep 3": -1.8}

Records above whose target name starts with A or a (2):
{"target gene": "axed (axundead)", "dsRNA": "DRSC08833", "Wolbachia per cell robust z, rep 1": 0.145, "Wolbachia per cell robust z, rep 2": 0.00918, "Wolbachia per cell robust z, rep 3": -0.796}
{"target gene": "axed (axundead)", "dsRNA": "DRSC10982", "Wolbachia per cell robust z, rep 1": 0.496, "Wolbachia per cell robust z, rep 2": -1.31, "Wolbachia per cell robust z, rep 3": -0.286}
